A mixed list of measured activities; the numbers were collected in NIAID ChemDB.

All rows: whole-cell or culture tests; organism: Mycobacterium tuberculosis

Percent inhibition refers to the dose given; in toxicity tests it is the harm to the cells.

compound | tested at | read-out | read by | cell line | strain or isolate | mutations | result
Cc1ccc2c(c1)nc1cc(Nc3ccc(Cl)cc3)c(=NC3CCCCCCC3)cc-1n2-c1ccc(Cl)cc1 | - | MIC | - | - | H37Rv | - | 0.2 µg/mL
COc1ccc(-c2oc3ccc(Br)cc3c(=O)c2O)cc1 | - | MIC | - | - | H37Rv | - | >12.5 µg/mL
Cc1c(SC(Cl)(Cl)Cl)cc([N+](=O)[O-])c(N(C)C)c1[N+](=O)[O-] | - | MIC bound | BACTEC | - | H37Rv | - | >12.5 µg/mL
C[C@H]1[C@H](C)Oc2c3c(c4c(c2[C@H]1O)OC(=O)CC4c1ccccc1)OC(C)(C)C=C3 | - | MIC | BACTEC | - | H37Rv | - | <12.5 µg/mL
CC(=O)Nc1ccc2oc3ccc(Cl)cc3c(=O)c2c1 | - | MIC | BACTEC | - | H37Rv | - | ≥12.5 µg/mL
CO[C@H]1/C=C/O[C@@]2(C)Oc3c(C)c(O)c4c(O)c(c(/C=N/N5CCN(C6CCCC6)CC5)c(O)c4c3C2=O)NC(=O)/C(C)=C\C=C\[C@H](C)[C@H](O)[C@@H](C)[C@@H](O)[C@@H](C)[C@H](OC(C)=O)[C@@H]1C | - | Mean MIC | - | - | H37Rv | - | 0.006 µg/mL
COc1ccc(C=C2c3ccccc3Sc3ccccc32)cc1C | - | MIC90 | resazurin | - | H37Rv | - | 29 µg/mL
NCCCC(N)CC(=O)NCC1NC(=O)C(CO)NC(=O)C(NC(=O)CC(N)CCCN)CNC(=O)C(C2CCN=C(N)N2)NC(=O)/C(=C/NC(N)=O)NC1=O | - | MIC | - | - | Isolate VIM-R/3 | - | 5 µg/mL
NNC(=O)c1ccncc1 | - | Median MIC | - | - | H37Ra | - | 0.025 µg/mL
COc1ccc(C(=O)/C=C/c2ccco2)c(O)c1 | - | MIC | - | - | H37Rv | - | >12.5 µg/mL
NC[C@H]1O[C@H](O[C@H]2[C@H](O)[C@@H](O[C@H]3O[C@H](CO)[C@@H](O)[C@H](N)[C@H]3O)[C@H](N)C[C@@H]2N)[C@H](N)C[C@@H]1O | - | Mean MIC | - | - | H37Rv | - | 7 µg/mL
O=C(NCC(=O)N1CCN(c2ccc(N3C[C@H](Cn4ccnn4)OC3=O)cc2F)CC1)C1=CC=C([N+](=O)[O-])C1 | 0.46 µM | inhibition | broth dilution / visual reading | - | SRI 1367 | Rifampicin-resistant | 58%
Cc1c(-c2ccc(N3CCCCC3)cc2)[nH]c2ccccc2c1=O | 5 µM | inhibition | fluorescence | - | H37Rv | - | 98.2%
Nc1c(-c2c(Cl)cccc2Cl)[n+]([O-])c2ccccc2[n+]1[O-] | - | MIC | - | - | PZA-R | - | 3.1 µg/mL
Cc1cn(C[C@H]2CN(c3ccc(N4CCN(C(=O)CNC(=O)C(Cl)Cl)CC4)c(F)c3)C(=O)O2)nn1 | - | MIC | visual reading | - | H37Rv | - | ≤0.015 µM
O=C1NC(=S)N/C1=C/c1cccc2ccccc12 | 6.25 µg/mL | inhibition | BACTEC | - | H37Rv | - | 16%
O=C(c1ccccc1)N1c2ccccc2Sc2ccccc21 | - | MIC90 | resazurin | - | H37Rv | - | 32 µg/mL
CC(=O)c1cc(C)cc(C2=CC(=O)c3ccccc3C2=O)n1 | - | MIC90 | resazurin | - | H37Rv | - | >6.25 µg/mL
Cc1c2oc3c(C)ccc(C(=O)OCCN4CCCC4)c3nc-2c(C(=O)OCCN2CCCC2)c(N)c1=O | 12.5 µg/mL | inhibition | BACTEC | - | H37Rv | - | 96%
CC(=C\c1ccccc1)/C=C1/NC(=S)NC1=O | 6.25 µg/mL | inhibition | BACTEC | - | H37Rv | - | 95%
CN(C)CC(O)CN1c2ccccc2S(=O)c2ccc(Cl)cc21.Cl | - | MIC bound | BACTEC | - | H37Rv | - | >12.5 µg/mL
O=C1NC(=S)N/C1=C/c1ccc(Cl)cc1 | - | EC50 | BACTEC | - | H37Rv | - | <6.25 µg/mL
CCc1ccc2c(c1)C(=O)C=CC2=O | - | MIC90 | resazurin | - | H37Rv | - | >6.25 µg/mL
Nc1ccc2cc(S(=O)(=O)[O-])c(N=Nc3ccc(-c4ccc(N=Nc5c(S(=O)(=O)[O-])cc6cc(S(=O)(=O)[O-])c(N=Nc7cccc([N+](=O)[O-])c7)c(N)c6c5O)cc4)cc3)c(O)c2c1.[Na+].[Na+].[Na+] | 12.5 µg/mL | inhibition | BACTEC | - | H37Rv | - | 0%
CC(C)(C)OC(=O)N[C@@H](Cc1ccccc1)[C@H](O)C[C@H](Cc1ccccc1)N=Cc1ccc([N+](=O)[O-])o1 | - | MIC | resazurin | - | ATTC 27294 | - | 6.15 µM
CC(=O)c1cccc(C2=CC(=O)c3ccccc3C2=O)n1 | - | MIC90 | resazurin | - | H37Rv | - | >6.25 µg/mL
Cc1cc(NC(=O)c2ccc(N)cc2)ccc1N=Nc1ccc2c(O)c(N=Nc3ccc4cc(S(=O)(=O)O)ccc4c3)c(S(=O)(=O)O)cc2c1 | - | MIC | BACTEC | - | H37Rv | - | ≥12.5 µg/mL
Cc1c(-c2ccc(-c3ccc(OC(F)(F)F)cc3)nc2)[nH]c2ccccc2c1=O | 5 µM | inhibition | fluorescence | - | H37Rv | - | 11.1%
O=C1NC(=S)N/C1=C/C=C/c1ccccc1 | 6.25 µg/mL | inhibition | BACTEC | - | H37Rv | - | 94%
Nc1ccc(C(=O)O)c(O)c1 | - | Median MIC | - | - | H37Rv | - | 1.25 µg/mL
O=C1c2cc(Cl)ccc2-n2c1nc1ccncc1c2=O | - | MIC | - | - | H37Rv | - | 0.03 µg/mL
Cc1cccc(C)c1OCC(=O)N[C@@H](Cc1ccccc1)[C@@H](O)C[C@H](Cc1ccccc1)NC(=O)[C@H](C(C)C)N1CCCNC1=O | - | MIC | resazurin | - | ATTC 27294 | - | >159 µM
O=c1c2ccccc2c2nccn2c2cc(Cl)ccc12 | - | MIC bound | resazurin | - | H37Rv | - | >6.25 µg/mL
COC(OC)c1ccc2c(c1)C(=O)c1nc3ccncc3c(=O)n1-2 | - | MIC | - | - | H37Rv | - | 0.13 µg/mL
O=C1NC(=S)N/C1=C/c1cccc(OCCc2ccccc2)c1 | - | EC50 | BACTEC | - | H37Rv | - | <6.25 µg/mL
Cc1cc(N/N=C/c2ccccn2)nc2ccccc12 | - | MIC | - | VERO | H37Rv | - | 6.25 µg/mL
Cc1c(-c2cnn(Cc3ccc(OC(F)(F)F)cc3)c2)[nH]c2ccccc2c1=O | 5 µM | inhibition | fluorescence | - | H37Rv | - | 2.6%
COc1ccc(-c2cc(=O)c3cc(C(=O)O)ccc3o2)cc1 | 12.5 µg/mL | inhibition | - | - | H37Rv | - | 0%
O=C1c2ccc(Cl)cc2-n2c1nc1ccccc1c2=O | - | MIC | - | - | H37Rv | - | 0.13 µg/mL
CC1=NN(C(=O)c2ccncc2)C(=O)C1N=Nc1ccc(S(=O)(=O)Nc2nc(C)cc(C)n2)cc1 | - | MIC bound | BACTEC | - | H37Rv | - | >12.8 µg/mL
O=C1NC(=S)N/C1=C\c1c(F)cccc1Cl | 6.25 µg/mL | inhibition | BACTEC | - | H37Rv | - | 0%
CCN1C[C@]2(COC)[C@H](O)CC(OC)[C@]34C1[C@H](CC23OC)[C@]1(OC(C)=O)[C@H]2[C@@H](OC(=O)c3ccccc3)[C@](O)(C[C@H]24)[C@@H](OC)[C@@H]1O | - | MIC | BACTEC | - | H37Rv | - | ≥12.8 µg/mL
O=C1C=CC(=O)c2c(O)ccc(O)c21 | - | MIC90 | resazurin | - | H37Rv | - | 3.13 µg/mL
CC(C)(C)OC(=O)N[C@@H](Cc1ccccc1)[C@H](O)C[C@H](Cc1ccccc1)N=Cc1ccc[nH]1 | - | MIC | resazurin | - | ATTC 27294 | - | 108.4 µM
O=C1NC(=S)N/C1=C/c1cccc(OCc2ccc(Cl)cc2)c1 | 6.25 µg/mL | inhibition | BACTEC | - | H37Rv | - | 95%
CC1=C(C)C(=O)C(CC2=C(C)C(=O)C(C)=C(C)C2=O)=C(C)C1=O | - | MIC | - | - | ETA-R | - | 16 µg/mL
C[C@@H]1CN(c2c(F)c(N)c3c(=O)c(C(=O)O)cn(C4CC4)c3c2F)C[C@H](C)N1 | - | Median MIC | - | - | H37Ra | - | 0.039 µg/mL
O=C1CC(C2OCOC3COCOC32)CC(=O)N1 | - | MIC bound | BACTEC | - | H37Rv | - | >12.5 µg/mL
CC(C)(C)OC(=O)N[C@@H](Cc1ccccc1)[C@H](O)C[C@H](Cc1ccccc1)N=Cc1cccs1 | - | MIC | resazurin | - | ATTC 27294 | - | 104.5 µM
NCCC[C@H](N)CC(=O)N[C@H]1CNC(=O)[C@H]([C@H]2C[C@H](O)NC(N)=N2)NC(=O)/C(=C/NC(N)=O)NC(=O)[C@H](CO)NC(=O)[C@H](CO)NC1=O | - | MIC | - | - | Isolate VIM-R/6 | - | 10 µg/mL
Cc1c(-c2ccc(N3CCCCC3)cc2)[nH]c2cc(F)cc(F)c2c1=O | 5 µM | inhibition | fluorescence | - | H37Rv | - | 100%
CC1=C(C)C(=O)c2ccccc2C1=O | - | MIC90 | resazurin | - | H37Rv | - | >6.25 µg/mL
C[C@@H]1C[C@]23CCC4[C@]5(C)CCC[C@]4(C)C(=O)OC(=O)[C@]4(C)CCC[C@@]6(C)C7C[C@H](OC(=O)CCCCCCCCC(=O)O[C@]1(CCC25)C3)[C@@H]1C[C@@]7(CCC64)C[C@@H]1C | - | MIC | BACTEC | - | H37Rv | - | 5 µg/mL
Cc1cc2c(C)c3cc(C)c(N)cc3nc2cc1N | 12.5 µg/mL | inhibition | BACTEC | - | H37Rv | - | 100%
CC(C)(C)OC(=O)N[C@@H](Cc1ccccc1)[C@H](O)C[C@H](Cc1ccccc1)N=Cc1ccco1 | - | MIC | resazurin | - | ATTC 27294 | - | 108.1 µM
C=CCOc1cccc(/C=C2/NC(=S)NC2=O)c1 | - | EC50 | BACTEC | - | H37Rv | - | <6.25 µg/mL
NC1CCN(c2c(F)cc3c(=O)c(C(=O)O)cn(C4CC4)c3c2Cl)C1 | - | MIC90 | - | - | 60 strains | - | 2 µg/mL
Nc1cccc(C(=O)/C=C/c2ccccc2I)c1 | - | MIC | - | - | H37Rv | - | >12.5 µg/mL
COc1ccc2c(C)cc(N/N=C/c3ccc([N+](=O)[O-])o3)nc2c1 | - | MIC bound | BACTEC | - | H37Rv | - | >12.5 µg/mL
O=c1cc(-c2ccccc2)oc2ccc(F)cc12 | - | MIC | - | - | H37Rv | - | >12.5 µg/mL
CC(=O)c1ccc(C2=CC(=O)c3ccccc3C2=O)[nH]1 | - | MIC90 | resazurin | - | H37Rv | - | >6.25 µg/mL
O=[N+]([O-])OC1CCCC(O[N+](=O)[O-])c2c1n([O-])c1ccccc1[n+]2=O | - | MIC bound | resazurin | - | H37Rv | - | >6.25 µg/mL
O=c1cc(-c2ccc(Cl)cc2)oc2ccccc12 | - | MIC | - | - | H37Rv | - | >12.5 µg/mL
C[C@@]1(CO)[C@H]2[C@@H](O)C[C@@H]3C[C@H]4C[C@@]3(CC[C@@]4(O)CO)[C@]2(C)CC[C@@H]1O | - | MIC bound | BACTEC | - | H37Rv | - | >12.5 µg/mL
Cc1onc(-c2ccccc2Cl)c1C(=O)N[C@@H]1C(=O)N2[C@@H]1SC(C)(C)[C@@H]2C(=O)O | - | Mean MIC | - | - | H37Rv | - | >256 µg/mL
c1ccc(OCCCN2c3ccccc3Sc3ccccc32)cc1 | - | MIC90 | resazurin | - | H37Rv | - | >32 µg/mL
CCOC(=O)NC([N-][n+]1ccccc1)c1ccccc1 | - | MIC | BACTEC | - | H37Rv | - | ≥12.5 µg/mL
Oc1cc(Cl)ccc1Oc1ccc(Cl)cc1Cl | - | MIC | - | - | M306 | - | 25 µM
CC(C)CC1N=C(NN=C2CCCCC2)SP1(=O)NNc1ncccn1 | - | MIC bound | BACTEC | - | H37Rv | - | >12.5 µg/mL
CCCCCN1C2=C(Sc3ccccc31)C(=O)CCC2 | - | MIC90 | resazurin | - | H37Rv | - | >32 µg/mL
COc1ccc(-c2cc(=O)c3ccc(F)cc3o2)cc1 | - | MIC | - | - | H37Rv | - | >12.5 µg/mL
CCC1=CC(=O)c2cc(CC)ccc2C1=O | - | MIC90 | resazurin | - | H37Rv | - | >6.25 µg/mL
C[C@@H]1C[C@]23CCC4[C@](C)(CCC[C@]4(C)C(=O)O)C2CC[C@@]1(OC(=O)CCCCCCCCC(=O)O[C@H]1CC2[C@@]4(CCC5[C@@]2(C)CCC[C@@]5(C)C(=O)O)C[C@@H]1[C@@H](C)C4)C3 | - | MIC | BACTEC | - | H37Rv | - | 20 µg/mL
CC[C@H]1OC(=O)[C@H](C)[C@@H](O[C@H]2C[C@@](C)(OC)[C@@H](OC(C)=O)[C@H](C)O2)[C@H](C)[C@@H](O[C@@H]2O[C@H](C)C[C@H](N(C)C)[C@H]2O)C(C)(O)C[C@@H](C)/C(=N\OCCCC2CCCCC2)[C@H](C)[C@@H](O)[C@]1(C)O | - | MIC | - | - | 5 | - | 3.13 µg/mL
CO[C@H]1/C=C/O[C@@]2(C)Oc3c(C)c(O)c4c(O)c(c(/C=N/N5CCN(C)CC5)c(O)c4c3C2=O)NC(=O)/C(C)=C\C=C\[C@H](C)[C@H](O)[C@@H](C)[C@@H](O)[C@@H](C)[C@H](OC(C)=O)[C@@H]1C | - | Mean MIC | - | - | H37Rv | - | 0.16 µg/mL
CC(=O)c1ccnc(C2=CC(=O)c3ccccc3C2=O)c1 | - | MIC90 | resazurin | - | H37Rv | - | 3.13 µg/mL
CCOc1cc(O)c(C(=O)/C=C/c2ccccc2)c(OCC)c1 | - | MIC | - | - | H37Rv | - | >12.5 µg/mL
O=[N+]([O-])c1ccc2c(c1)[S@@](=O)c1nc([N+](=O)[O-])cnc1N2 | 12.5 µg/mL | inhibition | BACTEC | - | H37Rv | - | -6%
CS(=O)(=O)c1ccc2c(c1)C(=O)c1nc3ccncc3c(=O)n1-2 | - | MIC | - | - | H37Rv | - | 4 µg/mL

Lines come from different laboratories, so protocols vary. ECn is the concentration giving n% inhibition of infection, replication or growth. An empty or dashed field is not shown. A number after MIC or MFC names an inhibition level or a share of isolates. MIC bound: limit read from a one-dose screen.